Anti-infective test results gathered from many reports (values: NIAID ChemDB through PubChem).

Common to all: toxicity to cultured cells; cell line: MT-2; measure: CC50

Rows are shuffled and stem from different studies. CCn is the concentration with n% toxicity to the cells. An empty or dashed field is not shown.

| structure | read by | result |
|---|---|---|
| COc1ccc(N(CCF)C(=O)[C@H](Cc2cc(F)cc(F)c2)NC(=O)Cn2c(=O)n(CC(=O)N[C@@H](Cc3cc(F)cc(F)c3)C(=O)N(CCF)c3ccc(OC)cc3)c3ccccc32)cc1 | XTT | 100 µM |
| Cc1cc(C)c2c(c1)N[C@H](c1cccc(N)c1)C[C@@H]2N1CCCC1=O | ATP | >149 µM |
| Cc1nc(C(CN)NC(=O)c2ncc(-c3ccc(Cl)cc3)[nH]2)sc1CO | XTT / absorbance | >51 µM |
| O=C(C(=O)N1CCN(C(=O)c2ccccc2F)CC1)c1c[nH]c2ccccc12 | XTT | >10 µM |
| Cc1ccc2c(=O)n(C)nc(Cc3ccccc3)c2c1 | propidium iodide | >198 µM |
| Cc1nc(C(CN)NC(=O)c2cnc(-c3ccc(Cl)cc3)[nH]2)sc1CO | XTT / absorbance | >51 µM |
| CCOC(=O)Nc1[nH]c2cc(Cl)cc(Cl)c2c1C(C)(O)C(F)(F)F | ATP | >200 µM |
| COc1cc2c(c(OC)c1)[C@@H](N1CCCC1=O)C[C@@H](c1cccc([N+](=O)[O-])c1)N2 | ATP | >126 µM |
| Cc1ccccc1S(=O)(=O)NC(=O)NC(Cc1ccccc1)c1ncn(C)c1-c1ccc2c(c1)CCO2 | XTT / absorbance | >100 µM |
| COc1ccc2c(c1)[C@@H](N1CCCC1=O)C[C@@H](c1cccc([N+](=O)[O-])c1)N2 | ATP | 47.33 µM |
| CCOC(=O)Nc1[nH]c2ccc(Cl)cc2c1C(=O)C(F)(F)F | ATP | >200 µM |
| Nc1cccc([C@@H]2C[C@H](N3CCCC3=O)c3ccccc3N2)c1 | ATP | >163 µM |
| COc1ccc(Cc2n[nH]c(=O)c3ccccc23)cc1OC | propidium iodide | >168 µM |
| COc1ccc2nc(-c3cccc(N)c3)ccc2c1 | ATP | 109 µM |
| O=C1O/C(=C\c2ccccc2)c2cc(Cl)c(Cl)cc21 | propidium iodide | >171 µM |
| COc1ccc2c(c1)[C@@H](N1CCCC1=O)C[C@@H](c1cccc(N)c1)N2 | ATP | 63.36 µM |
| O=c1[nH]nc(Cc2ccc(Cl)c(Cl)c2)c2ccccc12 | propidium iodide | >164 µM |
| CCOC(=O)Nc1[nH]c2cccc(Cl)c2c1C(=O)C(F)(F)F | ATP | >200 µM |
| O=C(/C=C/c1ccc(O)c(O)c1)NCC(NC(=O)/C=C/c1ccc(O)c(O)c1)C(=O)O | neutral red | >30 µM |
| COP(=O)(c1cc(C)cc(CCC#N)c1)c1c(C(N)=O)[nH]c2ccc(Cl)cc12 | MTS | 25.9 µM |
| CCCCC(O)(c1c(NC(=O)OCC)[nH]c2cccc(Br)c12)C(F)(F)F | ATP | 24 µM |
| O=C(C(=O)N1CCN(C(=O)c2ccc(F)cc2)CC1)c1c[nH]c2ccccc12 | XTT | >10 µM |
| Clc1cccc(Nc2nnc(Cc3c(Cl)cccc3Cl)o2)c1 | MTT | 71 µM |
| CCCCC(O)(c1c(NC(=O)OCC)[nH]c2cc(Cl)cc(Cl)c12)C(F)(F)F | ATP | 85.1 µM |
| C=CCN(C(=O)[C@H](Cc1cc(F)cc(F)c1)NC(=O)c1ccccc1S(=O)(=O)N[C@@H](Cc1cc(F)cc(F)c1)C(=O)N(CC=C)c1ccc(OC)cc1)c1ccc(OC)cc1 | XTT | 100 µM |
| O=C(/C=C/c1cc(O)c(O)c(O)c1)NCCC(NC(=O)/C=C/c1cc(O)c(O)c(O)c1)C(=O)O | neutral red | >29 µM |
| Cc1nc2sc3c(c2c(-c2ccc(C#N)cc2)c1C(OC(C)(C)C)C(=O)O)CCCC3 | - | >20 µM |
| CCCCCCCCCCCCCCCCCCOCCOP(=O)(O)CO[C@H](CO)Cn1ccc(N)nc1=O | flow cytometry | 0.02 µM |
| O=C(NCC(NC(=O)c1ccc(O)c(O)c1)C(=O)O)c1ccc(O)c(O)c1 | neutral red | >39 µM |
| Clc1cccc(Cl)c1Cc1nnc(Nc2ccncc2)o1 | MTT | 100 µM |
| Cc1ccccc1S(=O)(=O)NC(=O)N[C@@H](Cc1ccccc1)c1nccn1-c1ccc([NH+]([O-])O)cc1 | XTT / absorbance | >100 µM |
| C=CCN(C(=O)[C@H](Cc1cc(F)cc(F)c1)NS(=O)(=O)CCCS(=O)(=O)N[C@@H](Cc1cc(F)cc(F)c1)C(=O)N(CC=C)c1ccc(OC)cc1)c1ccc(OC)cc1 | XTT | 100 µM |
| Clc1ccc(Nc2nnc(Nc3ccc(Cl)cc3)o2)cc1 | MTT | 12 µM |
| CCCCCCCCCCCCCCCCCCOCCOP(=O)(O)CO[C@H](CO)Cn1cc(C)c(=O)[nH]c1=O | flow cytometry | 25 µM |
| Cc1nc(C(CN(C)C)NC(=O)c2ccc(-c3ccc(Cl)c(F)c3)[nH]2)sc1CO | XTT / absorbance | >40 µM |
| COc1cc([N+](=O)[O-])c(S(=O)(=O)[O-])cc1N=N/C(=N\Nc1cc(S(=O)(=O)[O-])c([N+](=O)[O-])cc1OC)C(=O)Nc1ccccc1 | trypan blue | 672 µM |
| Cc1ccc(C(=O)N2CCN(C(=O)C(=O)c3c[nH]c4ccccc34)CC2)cc1 | XTT | >10 µM |
| COc1cc2c(c(OC)c1)[C@@H](N1CCCC1=O)C[C@@H](c1cccc(N)c1)N2 | ATP | 75.39 µM |
| CC(=O)Oc1ccc(C(=O)N2CCN(C(=O)C(=O)c3c[nH]c4ccccc34)CC2)cc1 | XTT | >10 µM |
| Cc1ccc(Nc2ncc(Cc3c(F)cccc3F)o2)cc1 | MTT | >100 µM |
| C=CCN(C(=O)[C@H](Cc1cc(F)cc(F)c1)NS(=O)(=O)c1ccccc1S(=O)(=O)N[C@@H](Cc1cc(F)cc(F)c1)C(=O)N(CC=C)c1ccc(OC)cc1)c1ccc(OC)cc1 | XTT | 33.3 µM |
| O=C(NCCC(NC(=O)c1ccc(O)c(O)c1)C(=O)O)c1ccc(O)c(O)c1 | neutral red | >75 µM |
| C=CCn1nc(Cc2ccc(SC)cc2)c2ccccc2c1=O | propidium iodide | 70.9 µM |
| CCOC(C(=O)O)c1c(C)nc2sc3c(c2c1-c1ccc2ncn(C)c2c1)CCCC3 | - | >20 µM |
| Cc1ccc2c(c1)[C@@H](N1CCCC1=O)C[C@@H](c1cccc(N)c1)N2 | ATP | >156 µM |
| Nc1nc2c(ncn2[C@H]2C[C@H](O)[C@](CO)(C(F)(F)F)O2)c(=O)[nH]1 | absorbance | 3.3 µM |
| CCOC(=O)Nc1[nH]c2cccc(Br)c2c1C(C)(O)C(F)(F)F | ATP | 23.3 µM |
| Clc1ccc(Nc2nnc(Cc3c(Cl)cccc3Cl)s2)cc1 | MTT | >100 µM |
| COc1ccc(-c2c(C(Cc3ccccc3)NC(=O)NS(=O)(=O)c3ccccc3C)ncn2C)cc1 | XTT / absorbance | >100 µM |
| CCCCCCCCCCCCCCCCCCOCCOP(=O)(O)CO[C@H](CO)Cn1cnc2c(=O)[nH]c(N)nc21 | flow cytometry | 0.24 µM |
| Fc1ccc(Nc2ncc(Cc3c(F)cccc3F)o2)cc1 | MTT | 38 µM |
| O=C(C(=O)N1CCN(C(=O)c2ccccc2)CC1)c1c[nH]c2cc(F)ccc12 | XTT | >10 µM |
| Cc1cc2cc(C#N)cn2c(C)c1Nc1ccnc(Nc2ccc(C#N)cc2)n1 | MTT | 8.1 µM |
| COC(=O)C(CCCCNC(=O)/C=C/c1ccc(O)c(O)c1)NC(=O)/C=C/c1ccc(O)c(O)c1 | neutral red | >68 µM |
| CCCN(C(=O)[C@H](Cc1cc(F)cc(F)c1)NC(=O)CS(=O)(=O)N[C@@H](Cc1cc(F)cc(F)c1)C(=O)N(CCC)c1ccc2nccnc2c1)c1ccc2nccnc2c1 | XTT | 33.3 µM |
| CCOC(C(=O)O)c1c(C)nc2sc3c(c2c1-c1ccc(C(F)(F)F)nc1)CCCC3 | - | >20 µM |
| COc1cc(C)c(/C=C/C2NCCc3cc(OCc4ccccc4)c(OC)cc32)cc1OC | fluorescence | 2.2 µM |
| Cc1nc2sc3c(c2c(-c2ccc(C(F)(F)F)nc2)c1C(OC(C)(C)C)C(=O)O)CCCC3 | - | >20 µM |
| Cc1cc(C)c2ccc(-c3cccc([N+](=O)[O-])c3)nc2c1 | MTT | >50 µM |
| CCCCn1nc(Cc2ccc(SC)cc2)c2ccccc2c1=O | propidium iodide | 71.1 µM |
| Cc1nc2sc3c(c2c(-c2cnc4[nH]ccc4c2)c1C(OC(C)(C)C)C(=O)O)CCCC3 | - | >20 µM |

Repeating the first 5 entries:

structure	read by	result
COc1ccc(N(CCF)C(=O)[C@H](Cc2cc(F)cc(F)c2)NC(=O)Cn2c(=O)n(CC(=O)N[C@@H](Cc3cc(F)cc(F)c3)C(=O)N(CCF)c3ccc(OC)cc3)c3ccccc32)cc1	XTT	100 µM
Cc1cc(C)c2c(c1)N[C@H](c1cccc(N)c1)C[C@@H]2N1CCCC1=O	ATP	>149 µM
Cc1nc(C(CN)NC(=O)c2ncc(-c3ccc(Cl)cc3)[nH]2)sc1CO	XTT / absorbance	>51 µM
O=C(C(=O)N1CCN(C(=O)c2ccccc2F)CC1)c1c[nH]c2ccccc12	XTT	>10 µM
Cc1ccc2c(=O)n(C)nc(Cc3ccccc3)c2c1	propidium iodide	>198 µM